Measured values from several laboratories, pooled; numbers as filed in NIAID ChemDB.

Common to all: whole-cell or culture tests; agent: HIV-1; read by: cytopathic effect / XTT; endpoint: EC50

Blank or dashed fields: not listed here. Conditions beyond the fields shown may differ between rows. ECn: concentration that inhibits the pathogen or its effect by n%.

smiles	setting	changes	cells	strain	result
Cc1cc(S(=O)(=O)Nc2nnc3c4c(C)csc4ncn23)c(S)cc1Cl	-	-	CEM	RF	>117.2 µM
Nc1nc(NC2CC2)c2ncn([C@H]3C=C[C@@H](CO)C3)c2n1	-	RT-K65R Y115F	MT-2	Site-directed mutant	>3.44 µM
Fc1cccc(F)c1C1SCc2nc3ccccc3n21	-	-	CEM + CEM-SS	RF	1.1 µM
Cc1cc(S(=O)(=O)Nc2nnc3cnc4ccccc4n23)c(S)cc1Cl	-	-	CEM	RF	75.5 µM
Cc1cn([C@H]2C[C@H](N=[N+]=[N-])[C@@H](CO)O2)c(=O)[nH]c1=O	-	-	MT-2	IIIB	0.9 µM
Fc1cccc(F)c1[C@H]1SCc2nc3ccccc3n21	-	-	CEM	IIIB	0.62 µM
Cc1cc(S(=O)(=O)Nc2n[nH]c(Nc3ccccc3)n2)c(S)cc1Cl	-	-	CEM	RF	74.2 µM
CC1=C(C(=O)Nc2ccc(Cl)c(C(=O)OC(C)C)c2)SCCO1	-	-	CEM + CEM-SS	IIIB	0.25 µM
Cc1cn([C@H]2C[C@H](N=[N+]=[N-])[C@@H](CO)O2)c(=O)[nH]c1=O	-	-	PBMC	VIHU (non-syncytium-inducing)	0.04 µM
c1ccc2c(c1)sc1nccn12	-	-	AA5	IIIB	1.35 µM
CSC1N=S(=O)(c2ccccc2)c2ccccc2N1	-	-	MT-2	IIIB	6.2 µM
Cc1cc(S(=O)(=O)Nc2n[nH]c(N)n2)c(S)cc1Cl	-	-	CEM	RF	>200 µM
O=S1(c2ccccc2)=NC(=S)Nc2ccccc21	-	-	CEM + CEM-SS	KELL	5.07 µM
Nc1ncnc2c1ncn2CCOCP(=O)(O)O	-	-	MT-2	NL4-3 Recombinant	23 µM
Cc1cc(S(=O)(=O)Nc2n[nH]c(Nc3ccc(Cl)cc3)n2)c(S)cc1Cl	-	-	CEM	RF	>200 µM
CCc1c(Sc2ccccn2)n(COCc2ccccc2)c(=O)[nH]c1=O	-	-	AA5	IIIB	0.038 µM
Nc1cc(C(=O)O)ccc1SSc1ccc(C(=O)O)cc1N	-	-	CEM	RF	35.2 µM
Cc1cn([C@H]2C[C@H](N=[N+]=[N-])[C@@H](CO)O2)c(=O)[nH]c1=O	clinical isolate	-	PBMC	CLADE B	0.01 µM
Fc1cccc(F)c1C1SCc2nc3ccccc3n21	-	-	CEMx174 + CEM	RF	1.74 µM
Fc1cccc(F)c1[C@@H]1SCc2nc3ccccc3n21	-	RT-Y181C	CEM	IIIB	≥34.7 µM
Cc1cn([C@H]2C[C@H](N=[N+]=[N-])[C@@H](CO)O2)c(=O)[nH]c1=O	-	-	CEM + CEM-SS	C	0.002 µM
Cc1ccnc2c1NC(=O)c1cccnc1N2C1CC1	-	-	PBMC	WEJO	0.06 µM
Nc1nc2c(ncn2[C@H]2CO[C@@H](CO)O2)c(=O)[nH]1	-	RT-K65R K103N	MT-2	Site-directed mutant	18.7 µM
Cc1cn([C@H]2C[C@H](N=[N+]=[N-])[C@@H](CO)O2)c(=O)[nH]c1=O	-	RT-A98G	CEM + CEM-SS	NL4-3	0.01 µM
Cc1cn([C@H]2C[C@H](N=[N+]=[N-])[C@@H](CO)O2)c(=O)[nH]c1=O	-	RT-L100I	CEM + CEM-SS	NL4-3	0.003 µM
Cc1ccnc2c1NC(=O)c1cccnc1N2C1CC1	-	RT-K101E	CEM + CEM-SS	NL4-3	0.3 µM
CCc1c(Sc2ccccn2)n(COCc2ccccc2)c(=O)[nH]c1=O	-	RT-V179D	CEM + CEM-SS	NL4-3	0.14 µM
O=C1N(Cc2ccc(CO)cc2)[C@H](COc2ccccc2)[C@H](O)[C@@H](O)[C@@H](COc2ccccc2)N1Cc1ccc(CO)cc1	-	PR-L10F I84V	MT-4	IIIB	2.22 µM
Cc1ccc(Nc2nc(NS(=O)(=O)c3cc(C(=O)Nc4ccc(Cl)cc4)c(Cl)cc3S)n[nH]2)cc1	-	-	CEM	RF	>200 µM
Cc1cn([C@H]2C[C@H](N=[N+]=[N-])[C@@H](CO)O2)c(=O)[nH]c1=O	-	-	U-937	IIIB	0.0026 µM
Cc1ccc(Nc2nc(NS(=O)(=O)c3cc(C)c(Cl)cc3S)n[nH]2)cc1	-	-	CEM	RF	180 µM
Cc1cn([C@H]2C=C[C@@H](CO)O2)c(=O)[nH]c1=O	-	RT-K65R M184V	MT-2	Site-directed mutant	9.38 µM
Nc1nc(NC2CC2)c2ncn([C@H]3C=C[C@@H](CO)C3)c2n1	-	RT-K65R K103N	MT-2	Site-directed mutant	10.75 µM
Cc1ccnc2c1NC(=O)c1cccnc1N2C1CC1	-	-	AA5	IIIB	0.07 µM
CN1C(=S)N=S(=O)(O)c2cccc(Cl)c21	-	-	CEM + CEM-SS	IIIB	>951 µM